Data taken from patent US20090291885A1, “Conjugated toxin peptide therapeutic agents” (published 2009).

What was measured:
[1] = molecular target: T1, human Kv1.1 channel (human), Q09470; assay: cell-based or functional assay
T1 chain: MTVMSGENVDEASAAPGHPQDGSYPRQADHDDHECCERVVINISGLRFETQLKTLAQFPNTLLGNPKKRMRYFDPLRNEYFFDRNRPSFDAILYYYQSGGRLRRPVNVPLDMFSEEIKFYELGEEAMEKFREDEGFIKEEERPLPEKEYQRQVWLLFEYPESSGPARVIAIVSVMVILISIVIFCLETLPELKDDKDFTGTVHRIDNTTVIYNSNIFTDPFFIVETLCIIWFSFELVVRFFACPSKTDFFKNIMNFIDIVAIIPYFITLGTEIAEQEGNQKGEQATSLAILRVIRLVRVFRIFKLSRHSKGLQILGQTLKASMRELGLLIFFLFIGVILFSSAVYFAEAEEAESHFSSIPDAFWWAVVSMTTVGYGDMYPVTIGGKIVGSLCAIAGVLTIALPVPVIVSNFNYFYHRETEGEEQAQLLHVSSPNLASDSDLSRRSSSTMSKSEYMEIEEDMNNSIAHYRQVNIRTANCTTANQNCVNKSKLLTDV

[2] = molecular target: human Kv1.3 channel (human), P22001; assay: cell-based or functional assay

GVIINVKCKISRQCLEPCKKAGMRFGACMNGKCHCTPK (modifications not checked) [OSK1 Alanine Analog K27A (SEQ ID NO: 1423)]
Kv1.1 IC50, pM (IonWorks) [1]: > 3000 pM
Analog IC50 Divided by Ala-1 IC50, IL2 [2]: 20.3 fold
WB/IL-2 IC50, pM [2]: 1230 pM

GVIINVKCKISRQCLEPCKKAGMRFGKCMAGKCHCTPK (modifications not checked) [OSK1 Alanine Analog N30A (SEQ ID NO: 1425)]
Kv1.1 IC50, pM (IonWorks) [1]: > 3000 pM

GVIINVKCKISRQCLEPCKKAGMRFRKCMNGKCHCTPK (modifications not checked) [OSK1 G26R analog]
WB/IFNg IC50 [2]: 100 nM

GVIINVKCKIRRQCLEPCKKAGMRFGKCMNGKCHCTPK (modifications not checked) [OSK1 S11R analog]
Kv1.3 IC50, whole cell patch clamp [2]: 0.04 nM

GVIINVKCKISRQCLEPCKKAGMRFGKCMNGKCECTPK (modifications not checked) [OSK1 H34E analog]
Kv1.3 Selectivity (= Kv1.1/Kv.3 IC50) [2]: 30 fold

GVIINVKCKISRQCLEPCKKRGMRFGKCMNGKCHCTPK (modifications not checked) [OSK1 A21R analog]
WB/IL-2 IC50 [2]: 0.09 nM

GVIINVKCKISRQCLEPCKKAGMAFGKCMNGKCHCTPK (modifications not checked) [OSK1 Alanine Analog R24A (SEQ ID NO: 1420)]
Kv1.3 IC50, pM (IonWorks) [2]: > 3000 pM

GVIINVKCKASRQCLEPCKKAGMRFGKCMNGKCHCTPK (modifications not checked) [OSK1 Alanine Analog I10A (SEQ ID NO: 1408)]
Average IC50 (nM) IL-2, thapsigargin-induced, human whole blood [2]: 0.05 nM
WB/IL-2 IC50, pM [2]: 50 pM

GVIINVKCKIARQCLEPCKKAGMRFGKCMNGKCHCTPK (modifications not checked) [OSK1 Alanine Analog S11A (SEQ ID NO: 1409)]
WB/IL-2 IC50, pM [2]: 90 pM

GVIINVKCKISRQCLEPCKKAGMRFGKCMNGKCHCTPR (modifications not checked) [OSK1 K38R analog]
WB/IFNg IC50 [2]: 0.04 nM

GVIINVKCKISEQCLEPCKKAGMRFGKCMNGKCHCTPK (modifications not checked) [OSK1 R12E analog]
WB/IFNg IC50 [2]: 2 nM

GVIIEVKCKISRQCLEPCKKAGMRFGKCMNGKCHCTPK (modifications not checked) [OSK1 N5E analog]
WB/IL-2 IC50 [2]: 0.1 nM

GVIINVKCKISRQCLEPCKKAGMRFGKCMNGKCHCRPK (modifications not checked) [OSK1 T36R analog]
WB/IFNg IC50 [2]: 10.1 nM

GVIINVKCKISRQCLEPCKKAAMRFGKCMNGKCHCTPK (modifications not checked) [OSK1 Alanine Analog G22A (SEQ ID NO: 1418)]
Kv1.1 IC50, pM (IonWorks) [1]: > 3000 pM
Kv1.3 IC50, pM (IonWorks) [2]: > 3000 pM

GVIINVKCKISRQCLEPCKKAGMRFEKCMNGKCHCTPK (modifications not checked) [OSK1 G26E analog]
WB/IFNg IC50 [2]: 100 nM
WB/IL-2 IC50 [2]: 100 nM

GVIINVKCKISRQCLEPCKKAGMRFGKCRNGKCHCTPK (modifications not checked) [OSK1 M29R analog]
Kv1.3 IC50, IonWorks electrophysiology [2]: 200 pM
Kv1.3 Selectivity (= Kv1.1/Kv.3 IC50) [2]: 30 fold
